Pooled drug test results. Numbers come from NIAID ChemDB, via PubChem.

All rows: tests in culture; agent: HIV-1; read-out: EC50

Blank or dashed fields: not listed here.

smiles	cells	read by	changes	strain or isolate	value
CCC[C@@]1(CCc2ccccc2)CC(O)=C([C@H](CC)c2cccc(NS(=O)(=O)c3ccc(C(F)(F)F)cn3)c2)C(=O)O1	MT-4	reporter gene	V32I I50V L76V G73S V82I	T13717	86 nM
CCc1c(Cc2cccc(Cc3nc(SC(C)CC)[nH]c(=O)c3CC)c2)nc(SC(C)CC)[nH]c1=O	MT-4	cytopathic effect / MTT	RT-Y181C	NNRTI-resistant	>27 µM
CCN1c2ncc(CCOc3ccc(C(=O)NCC(CC)(CC)C(=O)O)cc3C)cc2C(=O)N(C)c2cccnc21	C8166	p24	RT-K103N Y181C		0.01–0.05 µM
COc1ccc(N(C)C(=O)[C@H](Cc2cc(F)cc(F)c2)NC(=O)CN2c3ccccc3N(CC(=O)N[C@@H](Cc3cc(F)cc(F)c3)C(=O)N(C)c3ccc(OC)cc3)S2(=O)=O)cc1	MT-2	luciferase		NL4-3	0.01 µM
Cc1nc2c(c(C)c(C)n2Cc2ccc(F)cc2)c(-c2ccc(Cl)cc2)c1C(OC(C)(C)C)C(=O)O	MT-4	MTT		IIIB	0.147 µM
O=C(O)CN(CCN(CC(=O)O)Cc1cnc2c(O)cccc2c1)CC(=O)O	PBMC	RT activity		B-92US026 Primary isolate	12 µM
Cc1nc2c(c(C)c(C)n2Cc2cccc(C#N)c2)c(-c2ccc(Cl)cc2)c1[C@H](OC(C)(C)C)C(=O)O	MT-4	MTT		IIIB	0.02694 µM
C=CCOCn1c(Cc2cccc(Cc3c(CC)c(=O)[nH]c(=O)n3COCC=C)c2)c(CC)c(=O)[nH]c1=O	MT-4	cytopathic effect / MTT	RT-Y181C	NNRTI-resistant	>100 µM
CCN1c2ncc(CCOc3ccc(C(=O)NC(C)(C)C(=O)O)cc3C)cc2C(=O)N(C)c2cccnc21	C8166	p24		IIIB	0.01–0.05 µM
CCCc1ccc(N(C)C(=O)[C@H](Cc2cc(F)cc(F)c2)NC(=O)NS(=O)(=O)N[C@@H](Cc2cc(F)cc(F)c2)C(=O)N(C)c2ccc(CCC)cc2)cc1	MT-2	luciferase		NL4-3	0.02 µM
O=C(NCc1ccc(F)cc1)c1nc2n(c(=O)c1O)CCCOC21CCN(C(=O)OCc2ccccc2)CC1	MT-2	luciferase / reporter gene		NL4-3	0.01–0.1 µM
COc1ccc(N(C)C(=O)[C@H](Cc2ccccc2)NC(=O)[C@H](Cc2ccccc2)NC(=O)N[C@@H](Cc2ccccc2)C(=O)N[C@@H](Cc2ccccc2)C(=O)N(C)c2ccc(OC)cc2)cc1	MT-2	luciferase		NL4-3	0.49 µM
CN(C)C(=O)N1CCC2(CC1)OCCn1c2nc(C(=O)NCc2ccc(F)cc2)c(O)c1=O	MT-2	luciferase / reporter gene		NL4-3	0.001–0.01 µM
Cc1nc2c(c(C)c(C)n2CC2CCC2)c(-c2ccc(Cl)cc2)c1[C@H](OC(C)(C)C)C(=O)O	MT-4	MTT		IIIB	0.0277 µM
COc1ccc(N(C)C(=O)[C@H](Cc2ccccc2)NC(=O)Cn2c(=O)n(CC(=O)N[C@@H](Cc3ccccc3)C(=O)N(C)c3ccc(OC)cc3)c3cc([N+](=O)[O-])ccc32)cc1	MT-2	luciferase		NL4-3	0.09 µM
Cc1ccc(S(=O)(=O)N2CCC3(CC2)OCCn2c3nc(C(=O)NCc3ccc(F)cc3)c(O)c2=O)cc1	MT-2	luciferase / reporter gene		NL4-3	0.001–0.01 µM
CCN1c2ncc(CCOc3ccc(C(=O)NS(C)(=O)=O)cc3C)cc2C(=O)N(C)c2cccnc21	C8166	p24		IIIB	0.01–0.05 µM
CCc1c(Cc2cccc(Cc3nc(SC)nc(OC)c3CC)c2)nc(SC)nc1OC	MT-4	cytopathic effect / MTT	RT-Y181C	NNRTI-resistant	>100 µM
CCn1c(C)c(C)c2c(-c3ccc(Cl)cc3)c([C@H](OC(C)(C)C)C(=O)O)c(C)nc21	MT-4	MTT		IIIB	0.00653 µM
COc1ccc(N(C)C(=O)[C@H](Cc2ccccc2)NC(=O)c2ccccc2C(=O)N[C@@H](Cc2ccccc2)C(=O)N(C)c2ccc(OC)cc2)cc1	MT-2	luciferase		NL4-3	0.9 µM
CCc1c(Cc2cccc(Cc3nc(SC)[nH]c(=O)c3CC)c2)nc(SC)[nH]c1=O	MT-4	cytopathic effect / MTT			>100 µM
CCn1c(C)c(C)c2c(-c3ccc(Cl)cc3)c(C(OC(C)(C)C)C(=O)O)c(C)nc21	MT-4	MTT		IIIB	0.4 µM
CN(C)C(=O)C(=O)N1CCC2(CC1)OCCCn1c2nc(C(=O)NCc2ccc(F)cc2)c(O)c1=O	MT-2	luciferase / reporter gene		NL4-3	0.01–0.1 µM
CCN1c2ncc(CCOc3ccc(C(=O)Nc4ccc(CC(=O)O)cc4)cc3C)cc2C(=O)N(C)c2cccnc21	C8166	p24		IIIB	<0.01 µM
COc1ccc(N(C)C(=O)[C@H](Cc2ccccc2)NC(=O)CN(CCO)CC(=O)N[C@@H](Cc2ccccc2)C(=O)N(C)c2ccc(OC)cc2)cc1	MT-2	luciferase		NL4-3	2.49 µM
CN(C)C(=O)C(=O)N1CCC2(CC1)OCCn1c2nc(C(=O)NCc2ccc(F)cc2)c(O)c1=O	MT-2	luciferase / reporter gene		NL4-3	0.01–0.1 µM
COc1ccc(N(C)C(=O)[C@H](Cc2ccccc2)NC(=O)CCC(=O)N[C@@H](Cc2ccccc2)C(=O)N(C)c2ccc(OC)cc2)cc1	MT-2	luciferase		NL4-3	3.25 µM
CCc1c(Cc2cccc(Cc3nc(SC(C)C)[nH]c(=O)c3CC)c2)nc(SC(C)C)nc1OC(C)C	MT-4	cytopathic effect / MTT			>43 µM
CCN(C(=O)[C@H](Cc1cc(F)cc(F)c1)NC(=O)NS(=O)(=O)N[C@@H](Cc1cc(F)cc(F)c1)C(=O)N(CC)c1ccc(OC(F)F)cc1)c1ccc(OC(F)F)cc1	MT-2	luciferase		NL4-3	0.01 µM
CCOCn1c(Cc2cccc(Cc3c(CC)c(=O)[nH]c(=O)n3COCC)c2)c(CC)c(=O)[nH]c1=O	MT-4	cytopathic effect / MTT	RT-K103N Y181C	RT-K103N+Y181C NNRTI-resistant	>100 µM

A second listing of 3 rows from above:

smiles	cells	read by	changes	strain or isolate	value
COc1ccc(N(C)C(=O)[C@H](Cc2cc(F)cc(F)c2)NC(=O)CN2c3ccccc3N(CC(=O)N[C@@H](Cc3cc(F)cc(F)c3)C(=O)N(C)c3ccc(OC)cc3)S2(=O)=O)cc1	MT-2	luciferase		NL4-3	0.01 µM
CN(C)C(=O)N1CCC2(CC1)OCCn1c2nc(C(=O)NCc2ccc(F)cc2)c(O)c1=O	MT-2	luciferase / reporter gene		NL4-3	0.001–0.01 µM
CCc1c(Cc2cccc(Cc3nc(SC(C)C)[nH]c(=O)c3CC)c2)nc(SC(C)C)nc1OC(C)C	MT-4	cytopathic effect / MTT			>43 µM

Two numbers with a dash give a range or band. Neighbouring rows are from separate reports. ECn is the concentration giving n% inhibition of infection, replication or growth.